In patent US20090068243A1, “Novel formulations for delivery of antiviral peptide therapeutics” (priority 2007, published 2009):

Tests used:
584.000098 = settings: for Days in Culture: starting virus isolate 584.000098; for # of Mutations Acquired: starting virus isolate 584.000098, gp41 genotype
Description: (§1) Assessment of biological properties included measurement of antiviral activity against HIV-1 strains. […] These assays score for reduction of infectious virus titer employing the indicator cell lines MAGI or the CCR5 expressing derivative cMAGI. Both cell lines exploit the ability of HIV-1 tat to transactivate the expression of a β-galactosidase reporter gene driven by the HIV-LTR. The β-gal reporter has been modified to localize in the nucleus and can be detected with the X-gal substrate as intense nuclear staining within a few days of infection. The number of stained nuclei can thus be interpreted as equal to the number of infectious virions in the challenge inoculum if there is only one round of infection prior to staining. […] In the MAGI and cMAGI assays, a 50% reduction in infectious titer (Vn/Vo=0.5) is significant, and provides the primary cutoff value for assessing antiviral activity (“IC50” is defined as the concentration of active ingredient resulting in a 50% reduction in infectious virus titer). […] The peptide (in the respective dilution) was added to the cMAGI or MAGI cells, followed by the virus inocula; and 24 hours later, an inhibitor of infection and cell-cell fusion (e.g., SEQ ID NO:2 (enfuvirtide)) was added to prevent secondary rounds of HIV infection and cell-cell virus spread. The cells were cultured for 2 more days, and then fixed and stained with the X-gal substrate to detect HIV-infected cells. The number of infected cells for each control and peptide dilution was determined with the CCD-imager, and then the IC50 was calculated (expressed in μg/ml).
(§2) In particular, in vitro resistance comparison studies were performed between the novel SEQ ID NO:9 compound of interest and established antiviral agent SEQ ID NO:2, described in detail as follows: MT2 cells were infected with virus isolates (IIIB, 030, 060 and 098) and cultured in increasing concentrations of SEQ ID NO:2 (enfuvirtide) or SEQ ID NO:9 to select for resistance. The initial peptide concentration was approximately 2 times the IC50 of each peptide against the corresponding wild type isolate. Peptide concentrations were maintained by adding fresh peptide every 1-3 days. Cultures were monitored for cytopathic effect (CPE) using standard techniques and when maximal CPE was achieved, a small aliquot of virus was used for subsequent rounds of infection. Peptide concentrations were increased 2 to 4-fold depending on the length of time in culture when compared to the growth rate of wild type virus. During the course of selection, peptide-free virus stocks were also collected. Peptide-free virus stocks were characterized for gp41 genotypic changes by dideoxy sequencing chemistries and phenotypic susceptibility was determined using a cMAGI infectivity assay.

584.000030 = settings: starting virus isolate 584.000030, gp41 genotype
Description: as §1, §2

584.000060 = settings: for Days in Culture: starting virus isolate 584.000060; for # of Mutations Acquired: starting virus isolate 584.000060, gp41 genotype
Description: as §1, §2

IIIB = settings: starting virus isolate IIIB; for # of Mutations Acquired: gp41 genotype
Description: as §1, §2

[1] = tested on: virus isolates (IIIB, 030, 060 and 098)
Description: as §1, §2

[2] = Geometric Mean of four isolates

Row | Substance | Days in Culture (584.000098) | # of Mutations Acquired (584.000098) | # of Mutations Acquired (584.000030) | Days in Culture (584.000060) | # of Mutations Acquired (584.000060) | Days in Culture (IIIB) | # of Mutations Acquired (IIIB) | Days in Culture [1, 2] | # of Mutations Acquired [1, 2] | time in culture relative to SEQ ID NO:2 selections ([1]; average over selections)
1 | enfuvirtide | 45 days | 1 | 2 | 46 days | 2 | 62 days | 2 | 49 days | – | –
2 | Ac-TTWEAWDRAIAEYAARIEALLRALQEQQEKNEAALREL-NH2 [SEQ ID NO:9, TTWEAWDRAIAEYAARIEALLRALQEQQEKNEAALREL] | 173 days | 5 | 2 | 173 days | 4 | 168 days | 4 | 140 days | 3.6 | ~3 times
